Target: PhoB (PhoBKP) (Klebsiella pneumoniae NTUH-K2044) (UniProt A0ACD7U063)
Experiment: EMSA
Conditions: 50-500 nM PhoB, 1 ug poly(dI-dC), competed by 10-fold excess unlabeled kpnO promoter, 10 mM Tris-HCl pH 8.0, 2 mM EDTA, 0.5 mM DTT, 50 mM NaCl, 10% glycerol, 5% native PAGE, temperature not stated, recombinant protein, residues 1-237, protein details: N-terminal His6 (pET-28c), label: 32P 5' end label, probe letters rebuilt from the primers and the genome

GGCCTAATTGATTGATTAATAGTCGTTAGGGAATCATTAGCCGTAGCACAGATAAATTAAAGTTGTGTAAAGAAGGGTAAAAAAAACCGGATGCGAGGCATCCGGTTGAAATAGGGGTAAACAGACATTCAGAACTGAATGACGGTAATAAATAAAGTTAATGATGATAGCGACTCTTATTTTAGCCACCAATGAACATTTTGTTTTACCATTCAGTGCTATAGATATGTTGTCGTCTATCACTTTGATTATAAAAGGTTAAATATTTTTTTTGATGATTAGTGCGTATTTCCCTGACCATTTTGCGGTGAAAAAAGTTCCGCTGAATTTACAAATTGAAACATCTTGTGGGAACTTTGAAACATCTTAGAAGTTTTAGTATCATATTCTTGTTGGATTATTCTGCATTTTGCAGCACAATGAAATAGCCGACTGATTAGAAGGGTAATCAGTAAGCAGTGGCATAATAAAAGGCATATAACAAACAGAGGGTTAATAAC (double strand) [kpnO promoter]
binding result: binds
